Record: PubChem BioAssay AID1224833 (University of Georgia, 2016)
This is an unselected part of about 12,000 reagents tested. Over the whole deposit, about 5,600 (46%) were called active. 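Active calls cover z-scores past 1 in both directions, so they include lowered as well as raised rotavirus replication.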

Test: 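Host factors restraining rotavirus as candidate antiviral genes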 (primary screen)
System: monkey MA104 kidney cells
Knock-down reagent: siRNA pool against human genes, 50 nM
Duration: 48 h knock-down before infection; read 24 h after infection
Treatment: infection with rotavirus strain RV3 two days after transfection; infectious dose for this stage not given
Measured: 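Rotavirus antigen per well by fluorescent immunoassay, normalised to non-targeting control wells on each plate and given as a standard z-score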
Scale: z-score vs non-targeting control: higher = more rotavirus replication than with non-targeting control
Rule for the call: In these data the active calls have z-score vs non-targeting control at about -1 or lower, or at about 1 or higher
Calls: active = z-score beyond 1 either way; inactive = z-score within 1 of zero

| target gene | z-score vs non-targeting control | call |
| --- | --- | --- |
| PPP6R3 | 0.256 | inactive |
| OTOP2 | 1.67 | active |
| ATP5IF1 | -0.959 | inactive |
| RHOBTB2 | -2.19 | active |
| ARHGAP25 | -0.558 | inactive |
| OR4C3 | 0.293 | inactive |
| RHBDF2 | 0.922 | inactive |
| DNHD1 | 1.53 | active |
| OR1Q1 | 0.316 | inactive |
| SCT | 3.25 | active |
| MAD2L2 | 0.576 | inactive |
| CENPV | 0.671 | inactive |
| PZP | -1.25 | active |
| UTS2B | -0.556 | inactive |
| FHL2 | -0.34 | inactive |
| CDR2L | -0.93 | inactive |
| EIF1AX | -0.586 | inactive |
| CROT | -0.586 | inactive |
| CPLX1 | 0.786 | inactive |
| INHBC | 1.21 | active |
| UNC119B | -0.89 | inactive |
| VIPR2 | -0.968 | inactive |
| ANKRD10 | -1.21 | active |
| LIPA | -3.07 | active |
| ZBTB22 | -0.0595 | inactive |
| CSF2RB | 1.42 | active |
| CLPS | -0.0936 | inactive |
| SLC38A6 | -1.95 | active |
| UBQLN4 | 0.251 | inactive |
| BEND2 | 0.0029 | inactive |
| FCGR2C | 0.266 | inactive |
| TCHHL1 | -0.792 | inactive |
| CST2 | -3.79 | active |
| DSE | 0.508 | inactive |
| SLX1A | 0.686 | inactive |
| RBFOX2 | -1.97 | active |
| LY6D | -0.933 | inactive |
| SLC37A2 | 0.785 | inactive |
| ASH2L | -1.61 | active |
| SERTAD3 | -0.421 | inactive |
| SMARCA5 | -0.641 | inactive |
| SCAMP2 | 1.15 | active |
| RHOBTB3 | 0.965 | inactive |
| PDCD10 | 0.397 | inactive |
| CCDC91 | 1.4 | active |
| GNPTG | -1.14 | active |
| RWDD4 | -0.542 | inactive |
| DRC9 | -0.989 | inactive |
| TMEM147 | -0.0063 | inactive |
| CASQ2 | -0.156 | inactive |
| DMAC2L | 1.66 | active |
| OR1S2 | 1.35 | active |
| PSMD7 | 0.921 | inactive |
| PMF1 | 0.616 | inactive |
| BPY2 | -0.391 | inactive |
| CPXCR1 | -0.606 | inactive |
| TGM4 | -1.1 | active |
| MORN4 | 0.324 | inactive |
| ZFP36L2 | 0.157 | inactive |
| CT45A3 | 0.014 | inactive |
| EPN2 | -0.799 | inactive |
| GLI1 | 1.34 | active |
| ZAR1 | -1.08 | active |
| GALNT10 | -1.41 | active |
| TUT7 | -1.87 | active |
| GJA4 | -1.51 | active |
| PGAP3 | -1.81 | active |
| KANSL3 | 1.37 | active |
| STC2 | 1.23 | active |
| KARS1 | -1.45 | active |
| TAS2R14 | 1.79 | active |
| NDUFS8 | -1.16 | active |
| RASA1 | -1.07 | active |
| DYNC1I2 | -0.833 | inactive |
| HADHA | 2.3 | active |
| SNAI2 | 0.633 | inactive |
| HSPA5 | 0.542 | inactive |
| NDFIP2 | -1.44 | active |
| CLASRP | -0.63 | inactive |
| FGF6 | -2.18 | active |
| SLC60A1 | -0.997 | inactive |
| JMJD6 | 0.65 | inactive |
| DLL4 | 1.19 | active |
| ZNF540 | -0.672 | inactive |
| MPND | 1.01 | active |
| KRT8 | 1.27 | active |
| ECRG4 | -0.244 | inactive |
| OR1D2 | 1.04 | active |
| SPATA46 | -2.04 | active |
| BICC1 | -0.637 | inactive |
| GPBAR1 | -0.738 | inactive |
| APOBEC3A | -1.2 | active |
| LRRTM4 | -1.01 | active |
| SYNJ2BP | 0.459 | inactive |
| SPICE1 | -2.08 | active |
| CCNB1 | 0.639 | inactive |
| CIAO2A | 3.53 | active |
| WASHC5 | 0.168 | inactive |
| OR51Q1 | -1.6 | active |
| BHLHE22 | 0.647 | inactive |
| NEFH | -2.57 | active |
| LY6K | -0.579 | inactive |
| SPECC1 | -1.54 | active |
| HLA-DRB4 | 1.71 | active |
| HPRT1 | 1.66 | active |
| GDF3 | -0.878 | inactive |
| PCOLCE2 | -2.31 | active |
| OR4F5 | -0.155 | inactive |
| APOBEC3G | 0.555 | inactive |
| FAM120AOS | 0.999 | inactive |
| AP3B2 | 3.09 | active |
| LNPK | -1.39 | active |
| GOLGA6L9 | -1.2 | active |
| WDFY1 | -2.28 | active |
| TNFRSF17 | 0.823 | inactive |
| OIP5 | 2.25 | active |
| MTIF2 | -1.17 | active |
| GPR63 | -1.91 | active |
| GRM4 | -0.684 | inactive |
| IFNA4 | -0.161 | inactive |
| SOX18 | 0.957 | inactive |
| KBTBD2 | -0.711 | inactive |
| ALAS1 | 1.72 | active |
| MESD | 0.624 | inactive |
| DYNLT1 | -1.43 | active |
| INSIG2 | 0.479 | inactive |
| LIN9 | -0.308 | inactive |
| IRGQ | -0.826 | inactive |
| CST5 | -2.05 | active |
| MXRA5 | -2.15 | active |
| MAGEB1 | -0.371 | inactive |
| GRM2 | -2.13 | active |
| ZNF718 | -0.862 | inactive |
| CXCL5 | 0.0103 | inactive |
| NEGR1 | 0.452 | inactive |
| FAM169BP | 0.96 | inactive |
| HOMER3 | 1.28 | active |
| TRMT9B | -1.95 | active |
| TMEM63B | 0.935 | inactive |
| SERTAD2 | -0.882 | inactive |

Part of the list above, reformatted:
{"target gene":"HLA-DRB4","z-score vs non-targeting control":1.71,"call":"active"}
{"target gene":"HPRT1","z-score vs non-targeting control":1.66,"call":"active"}
{"target gene":"GDF3","z-score vs non-targeting control":-0.878,"call":"inactive"}
{"target gene":"PCOLCE2","z-score vs non-targeting control":-2.31,"call":"active"}
{"target gene":"OR4F5","z-score vs non-targeting control":-0.155,"call":"inactive"}
{"target gene":"APOBEC3G","z-score vs non-targeting control":0.555,"call":"inactive"}
